PubChem BioAssay AID1224833 | University of Georgia, 2016
Assay: 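Human genes whose knock-down alters rotavirus replication in monkey cells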 (primary screen). Cells: monkey MA104 kidney cells. Reagent: siRNA pool against human genes, 50 nM. Timing: 48 h knock-down before infection; read 24 h after infection. Challenge: infection with rotavirus strain RV3 two days after transfection; infectious dose for this stage not given. Detection: 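z-score of rotavirus antigen signal per well, from a fluorescent immunoassay, relative to non-targeting control wells on the same plate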. Reading the numbers: z-score vs non-targeting control: higher = more rotavirus replication than with non-targeting control. Call rule: In these data the active calls have z-score vs non-targeting control at about -1 or lower, or at about 1 or higher. Meaning of the calls: active = z-score beyond 1 either way; inactive = z-score within 1 of zero.
The whole screen tested about 12,000 reagents; below is a random part of them. About 5,600 of all reagents (46%) were called active. 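Active calls cover z-scores past 1 in both directions, so they include lowered as well as raised rotavirus replication.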 Unmarked entries are inactive.

| gene | z-score vs non-targeting control |
| --- | --- |
| SPATS2L | -1 (active) |
| NDRG3 | -0.145 |
| CNTROB | -0.218 |
| ZC3HAV1 | -1.23 (active) |
| MEGF11 | 0.448 |
| TMPRSS7 | -1.24 (active) |
| EIF6 | 0.82 |
| CPLX4 | -1.7 (active) |
| CD33 | -0.321 |
| RIN2 | -1.81 (active) |
| MS4A7 | 0.242 |
| SP6 | 0.292 |
| ZNF620 | 0.355 |
| ZSWIM9 | 1.11 (active) |
| FCF1 | 0.364 |
| SLC6A5 | 0.608 |
| LRFN5 | -0.195 |
| RBM33 | 1.86 (active) |
| TOMM22 | 1.2 (active) |
| LEMD3 | -0.715 |
| SNRPN | -3.05 (active) |
| RBM5 | -0.388 |
| KRT77 | 1.62 (active) |
| SLC22A5 | 1.31 (active) |

Single entries from above:
Value for SNRPN under “z-score vs non-targeting control”: -3.05 (active)
MEGF11, z-score vs non-targeting control = 0.448
Result of RIN2 under “z-score vs non-targeting control”: -1.81 (active)
LEMD3, z-score vs non-targeting control: -0.715
TOMM22, z-score vs non-targeting control = 1.2 (active)
Entry for ZC3HAV1 in “z-score vs non-targeting control”: -1.23 (active)

The results go on:
| gene | z-score vs non-targeting control |
| --- | --- |
| COX14 | 1.29 (active) |
| ESCO1 | -1.08 (active) |
| IFNA16 | -2.18 (active) |
| FGF18 | 0.525 |
| WWC1 | 0.972 |
| TCEA3 | -0.943 |
| IRF2 | -0.636 |
| CCDC191 | 3.74 (active) |
| MRPS33 | -1.86 (active) |
| PIEZO1 | -3.15 (active) |
| PRR15 | 1.26 (active) |
| CRLF1 | -1.34 (active) |
| SGPL1 | 0.715 |
| MNS1 | -0.357 |
| OXTR | 0.924 |
| OR2D3 | -1.38 (active) |
| DENND3 | -1.19 (active) |
| HYOU1 | -1.05 (active) |
| AKAP10 | -1.92 (active) |
| FGL2 | -0.966 |
| RFT1 | -0.705 |
